This is a selection; strong and weak results do not stand in their true shares. The source made the active and inactive calls.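 Rule for the calls: active = inhibition above the campaign mean inhibition over all tested compounds plus 3 SD (cut at about 28% in these data); inactive = the rest.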

This note sets out measurements from PubChem BioAssay AID1822 (The Scripps Research Institute Molecular Screening Center, 2009).

The assay has as its system M18 aspartyl aminopeptidase (Plasmodium falciparum 3D7). Kind of assay: inhibition of P. falciparum M18 aminopeptidase – biochemical, QFRET, recombinant enzyme, primary screen (AID 1822).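 Note: 0% = plate median of test compound wells and 100% = 2 mM ZnCl2.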 Conditions: recombinant PfM18AAP, H-Glu-NHMec fluorogenic cleavage; at 7.35 µM; active compounds read high.
Broadly, the inhibition is the drop in the measured response relative to a control, in per cent. In the case of `Cc1ccc(C(=O)OC2CN3CCC2CC3)cc1` (stereo unspecified), the inhibition was inactive: -1.12%.
For `CC1CCC(C(C)C)C(OP(=O)(Nc2ccccn2)c2ccccc2)C1` (stereo unspecified), the inhibition is inactive: 7.61%.
As to `O=P1(Nc2ccc(Br)cn2)COc2ccccc2OC1`, the inhibition is inactive: 0.72%.
Take `O=[As](O)(c1cccs1)c1cccs1`: the inhibition is inactive: 3.94%.
As to `Cc1ccc(OCC(=O)OC2CN3CCC2CC3)cc1` (stereo unspecified), the inhibition was inactive: 2.24%.
For `Nc1cccc([As](=O)(O)c2ccccc2)c1`, the inhibition is inactive: -0.38%.
For `O=P1(Nc2ncccn2)COc2ccccc2OC1`, the inhibition was inactive: 1.66%.
In the case of `Clc1n[nH]nc1-c1nn[nH][15n]1` it was inactive: -0.93%; in that of `CC(C)(C)C(=O)NC(Sc1ncccn1)C(Cl)(Cl)Cl` (stereo unspecified), inactive: 24.5%; in that of `CCOP(=O)(Nc1ccc(C)cn1)OCC`, inactive: 2.18%.
As to `CCC1=CC2Cc3nc4ccc(Cl)cc4c(N)c3C(C1)C2` (stereo unspecified), the inhibition is inactive: 2.75%.
The result for `O=P1(Nc2ccccn2)COc2ccccc2OC1` reads inactive: 3.44%; that for `CCOP(=O)(NC(=NC(C)c1ccccc1)NC(C)c1ccccc1)OCC` (stereo unspecified), inactive: -8.05%.
In the case of `O=[As](O)(c1ccccc1Br)c1ccccc1Br` it was inactive: -13.8%; in that of `CC1(CBr)Cn2c(nc3ccccc3c2=O)S1` (stereo unspecified), inactive: -4.53%; in that of `CN(C(=O)Cc1ccc(Cl)c(Cl)c1)[C@@H]1CCCC[C@H]1N1CCCC1`, inactive: -1.12%.
Consider `CC(C)/C=N\N=C(\N)N[N+](=O)[O-]`, for which the inhibition was inactive: 22.7%.
On to `O=[As](O)(c1cccc(O)c1)c1cccc(O)c1`, for which the inhibition was inactive: -8.29%.
In the case of `Cc1cccc(OCC(=O)OC2CN3CCC2CC3)c1` (stereo unspecified) it was inactive: -13.8%.
Take `COc1cc(C(=O)NCC2(N3CCOCC3)CCCCC2)cc(Cl)c1OC(C)C`: the inhibition is inactive: -0.18%.
In the case of `O=[As](O)(O)c1cccnc1`, the inhibition was inactive: -16.1%.
Regarding `CS(=O)(=O)c1ccc(Cl)c(NC(=O)COC(=O)C(O)(c2ccccc2)c2ccccc2)c1`, the inhibition is inactive: 0.47%.
With `O=C(OC1CN2CCC1CC2)c1ccc(Cl)cc1` (stereo unspecified), the inhibition is inactive: 0.21%.
As to `COc1cc(C2NCCC3(OCCO3)C2(C)C)cc(OC)c1OC` (stereo unspecified), the inhibition was inactive: 0.98%.
For the molecule `CCOP(=O)(Nc1cccc2ccccc12)OCC`, the inhibition is inactive: -11.6%.
Take `CCCOP(=S)(Nc1nc(N)cc(=O)[nH]1)OCCC`: the inhibition was inactive: -5.83%.
For `Nc1cccc2c([As](=O)(O)O)cccc12`, the inhibition is inactive: 20.8%.
As to `Cc1ccc(NCCc2c([N+](=O)[O-])cc([N+](=O)[O-])cc2[N+](=O)[O-])cc1`, the inhibition is inactive: 14%.
On to `O=C(O)COc1ccc([As](=O)(O)O)cc1[N+](=O)[O-]`, for which the inhibition was inactive: 4.64%.
Turning to `Nc1ccccc1[As](=O)(O)c1ccccc1`, the inhibition was inactive: 2.74%.
As to `CS(=O)(=O)c1cc([N+](=O)[O-])c2no[n+]([O-])c2c1`, the inhibition is inactive: 6.52%.
Regarding `CCOP1(=S)c2c(C)nn(CCC#N)c2N=C(c2ccccc2F)N1C` (stereo unspecified), the inhibition was inactive: 0.13%.
The result for `O=P(Nc1nccs1)(c1ccccc1)c1nc2ccccc2s1` (stereo unspecified) reads inactive: 8.08%; that for `O=P(Nc1nccs1)(Oc1ccccc1)Oc1ccccc1`, inactive: 3.04%.
In the case of `O=[N+]([O-])c1ccc2c(c1)nnn2O`, the inhibition was inactive: -12.3%.
Turning to `CCOP1(=S)c2c(C)nn(CCC#N)c2N=C(c2ccc(F)cc2)N1C` (stereo unspecified), the inhibition was inactive: 0.45%.
